Test results taken from PMC7765321, “Novel Isoniazid-Carborane Hybrids Active In Vitro against Mycobacterium tuberculosis” (Pharmaceuticals, 2020).

System: HaCaT cells

N′-((1,12-dicarba-closo-dodecaboran-1-yl)ethyl)isonicotinohydrazide [Compound 25]
cell viability (flow cytometry; lower left quadrant Fig. 7C) (24 h at MIC50 for ΔkatG): 87.45%
cell viability (flow cytometry; lower left quadrant Fig. 7C) (24 h at MIC99 for ΔkatG): 82.20%

Where two headings read alike, the source gives them in different places.
